According to patent publication US20080274134A1:

Key:
[1] = molecular target: HIV-1JR-FL envelope glycoprotein (full-length gp160) on virus particles (HIV-1 JR-FL); test: cell-based or functional assay
[2] = molecular target: HIV-1MN envelope glycoprotein (full length gp160MN) on pseudovirus (HIV-1 MN) (UniProt P05877); test: cell-based or functional assay

Substance “CD4-immunoglobulin G2 (CD4-IgG2), tetrameric CD4-based molecule (from UniProt P01730 26-204; P01730 26-203) (Fc fusion)” has a 50% neutralization, HIV-1JR-FL Env-pseudotyped virus on U87.CD4 co-receptor cells (mean titer, n=29) [1] of 0.11 µg/mL, a 50% neutralization, PBMC-grown HIV-1JR-FL in PBMC assay (n=14) [1] of 0.32 µg/mL and a 90% neutralization, HIV-1JR-FL pseudovirus [1] of 0.72 µg/mL. The 90% neutralization, replication-competent HIV-1JR-FL [1] was 1.32 µg/mL, the 50% titer, HIV-1MN pseudoviruses (n=22) [2] was 0.01 µg/mL and the 90% titer, HIV-1MN pseudoviruses (n=22) [2] was 0.05 µg/mL.
